Publication PMC6158557
Protein sequences can lack the tags named with them.

Molecular target: T1, OmpR-His6 (UniProt P74982)
T1 sequence (looked up): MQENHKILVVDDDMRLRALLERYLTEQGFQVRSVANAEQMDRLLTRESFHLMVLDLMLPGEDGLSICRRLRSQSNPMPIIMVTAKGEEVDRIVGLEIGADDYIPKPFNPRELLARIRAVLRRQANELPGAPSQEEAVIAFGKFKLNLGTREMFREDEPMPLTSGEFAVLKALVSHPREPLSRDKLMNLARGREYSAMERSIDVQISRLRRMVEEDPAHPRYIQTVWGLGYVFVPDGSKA
Assay: EMSA
Settings: 20 mM Mg2+, recombinant protein, residues 1-239, protein details: N-terminal His6, probe letters rebuilt from the primers and the genome

Question: Does “ATTCGACCCGGTGGTTTACTGGATCAATCTGCGACGGGGAAAGCCATCCGTCTGCAAACAGAGGCTCATGGCCTGGTTACTCGGGAAGATGTTGCCATTCACCTGAGTCAGATGGTCGAAGATCCCGCAACCTATCATCAGATTTATGCACTCGTCGATCCCGGATTAGTTCGCGAAGTAAAAATAAATTAACAATAAATATGTCTTGATGTAACACTGAATCATGATTGATAATGCTTATCATATTGATATCGGTTATCATTACCTTGTTTACAATATGGATAAACAGTTGAACAAAGCACCCACAATGAATG (double strand) [F2 (phem-1, OBS-1)]” bind (complexes appear from 0.65 uM OmpR, F1, F3 or F4 and 16S rDNA tested alongside)?
Answer: binds

Question: Does “CCGGTTCAATTAGCATTAACTCGATTTAAAATCAGTGATGGAATGACATTTAGCTAAGGCTCTACTCCATCACTGATCTAAATACATCAATCCACTCCATTCACACCACTCATCTTATTTCTGCCTAAATCATTCAGCTTACAAATTACTAATGAAAAGCAAGACATTGGAATAACAACTAATTAAGTCCAGGGTTGAAACCAATAGCGCATGGGGATGATAATCATTATCAACTTGCTCATAATATCAACTCAAAGAAAGTATCTTATGCACAAAGCAACATCCATAACGCAAAATGCAACC (double strand) [F4 (phem-2, OBS-2)]” bind (complexes observed at 1.31 uM OmpR (F2 at 0.65 uM))?
Answer: binds
